# Replication capacity of HIV-1 mutants, Gag

Protein: Gag of HIV-1 NL4-3, numbered from its first residue. Gag is numbered as the whole polyprotein.
"Other frame" gives the effect on an overlapping gene as the source lists it; other overlaps (genes, RNA elements) are not shown.

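Random point mutant libraries of HIV-1 NL4-3, one for each of seven fragments, were passaged in CEM T lymphocytes. The RC index is the frequency of a change after passage round 2 divided by its frequency in the plasmid library.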

RC index: lower means poorer replication; rough cut-offs are 0.1 (lethal) and 0.2 (tolerated). Substitutions are written as wild-type residue, site number, new residue. Since each clone held several changes (about five per kb), neutral changes can read low.

I104L (base A1099T, region MA) gave 0.0303.
F172L (base T1305G, region CA) gave 0.130.
L85F (base C1042T, region MA) gave 0.128.
M187K (base T1349A, region CA) gave 0.0540.
A83S (base G1036T, region MA) gave 0.127.
P255S (base C1552T, region CA) gave 0.216.
L270F (base A1599T, region CA) gave 0.0718.
V156G (base T1256G, region CA) gave 0.0368.
P149A (base C1234G, region CA) gave 0.0354.
L61Q (base T971A, region MA) gave 0.0432.
N271I (base A1601T, region CA) gave 0.0775.
N327K (base C1770G, region CA) gave 0.0218.
E428G (base A2072G, region NC p7) gave 0.0936.
E365D (base A1884T, region p2) gave 0.0188.
L270I (base T1597A, region CA) gave 0.0750.
A336T (base G1795A, region CA) gave 0.115.
E12Q (base G823C, region MA) gave 0.374.
N253S (base A1547G, region CA) gave 0.0419.
M228K (base T1472A, region CA) gave 0.0272.
H421R (base A2051G, region NC p7) gave 0.0431.
K30R (base A878G, region MA) gave 0.0679.
L201I (base T1390A, region CA) gave 0.0588.
Q28R (base A872G, region MA) gave 0.0563.
L78S (base T1022C, region MA) gave 0.0738.
Q116E (base C1135G, region MA) gave 0.0766.
F383Y (base T1937A, region NC p7) gave 0.0284.
S234C (base A1489T, region CA) gave 0.0619.
K95I (base A1073T, region MA) gave 0.0960.
T186S (base C1346G, region CA) gave 0.0233.
I223F (base A1456T, region CA) gave 0.0532.
Q127L (base A1169T, region MA) gave 0.0705.
N253D (base A1546G, region CA) gave 0.115.
F393S (base T1967C, region NC p7) gave 0.108.
T303N (base C1697A, region CA) gave 0.127.
V158I (base G1261A, region CA) gave 0.140.
C87Y (base G1049A, region MA) gave 0.0740.
K113T (base A1127C, region MA) gave 0.500.
K113E (base A1126G, region MA) gave 0.0764.
S111N (base G1121A, region MA) gave 0.278.
I34K (base T890A, region MA) gave 0.0618.
S129C (base A1174T, region MA) gave 0.0216.
R444S (base G2121C, region p1 / p6*, other frame p6* A5P) gave 0.0331.
V135L (base G1192T, region CA) gave 0.0181.
C330S (base T1777A, region CA) gave 0.0280.
P217R (base C1439G, region CA) gave 0.0786.
T320P (base A1747C, region CA) gave 0.0492.

A selection of 6 entries from above:

{"change": "L61Q", "base": "T971A", "region": "MA", "other frame": "none", "RC": 0.0432}
{"change": "C330S", "base": "T1777A", "region": "CA", "other frame": "none", "RC": 0.0280}
{"change": "T303N", "base": "C1697A", "region": "CA", "other frame": "none", "RC": 0.127}
{"change": "P217R", "base": "C1439G", "region": "CA", "other frame": "none", "RC": 0.0786}
{"change": "T186S", "base": "C1346G", "region": "CA", "other frame": "none", "RC": 0.0233}
{"change": "L270F", "base": "A1599T", "region": "CA", "other frame": "none", "RC": 0.0718}

Nucleotide positions follow pNL4-3. The authors read an index above 1 as above wild type (1.9% of all changes in the genome).

Data from the supplement of Al-Mawsawi et al. 2014, doi:10.1186/s12977-014-0124-6.